In brackets after ≈: the same amount, converted by molar mass.
Assays:
Mycobacterial ClpC1-NTD = Mycobacterial ClpC1-NTD (Mycobacterium tuberculosis, UniProt P9WPC9); assay: SPR binding affinity to ClpC1-NTD; conditions: read-out: SPR KD NTD; ClpC1 N-terminal domain; KD=kd/ka; Table 1
Mycobacterial ClpC1 FL = Mycobacterial ClpC1 FL (Mycobacterium tuberculosis, UniProt P9WPC9); assay: SPR binding affinity to ClpC1 full-length protein (FL); conditions: read-out: SPR KD FL, KD=kd/ka, Table 1
M. tuberculosis = assay: MIC against M. tuberculosis, microplate Alamar Blue assay (MABA); type: cell-based, Mycobacterium tuberculosis
[1] = MABA, 90% reduction in fluorescence, Table 1

By UniProt entry, the sequences of proteins in these tests, tags left out. Residues count along the entry.
UniProt P9WPC9, whole entry: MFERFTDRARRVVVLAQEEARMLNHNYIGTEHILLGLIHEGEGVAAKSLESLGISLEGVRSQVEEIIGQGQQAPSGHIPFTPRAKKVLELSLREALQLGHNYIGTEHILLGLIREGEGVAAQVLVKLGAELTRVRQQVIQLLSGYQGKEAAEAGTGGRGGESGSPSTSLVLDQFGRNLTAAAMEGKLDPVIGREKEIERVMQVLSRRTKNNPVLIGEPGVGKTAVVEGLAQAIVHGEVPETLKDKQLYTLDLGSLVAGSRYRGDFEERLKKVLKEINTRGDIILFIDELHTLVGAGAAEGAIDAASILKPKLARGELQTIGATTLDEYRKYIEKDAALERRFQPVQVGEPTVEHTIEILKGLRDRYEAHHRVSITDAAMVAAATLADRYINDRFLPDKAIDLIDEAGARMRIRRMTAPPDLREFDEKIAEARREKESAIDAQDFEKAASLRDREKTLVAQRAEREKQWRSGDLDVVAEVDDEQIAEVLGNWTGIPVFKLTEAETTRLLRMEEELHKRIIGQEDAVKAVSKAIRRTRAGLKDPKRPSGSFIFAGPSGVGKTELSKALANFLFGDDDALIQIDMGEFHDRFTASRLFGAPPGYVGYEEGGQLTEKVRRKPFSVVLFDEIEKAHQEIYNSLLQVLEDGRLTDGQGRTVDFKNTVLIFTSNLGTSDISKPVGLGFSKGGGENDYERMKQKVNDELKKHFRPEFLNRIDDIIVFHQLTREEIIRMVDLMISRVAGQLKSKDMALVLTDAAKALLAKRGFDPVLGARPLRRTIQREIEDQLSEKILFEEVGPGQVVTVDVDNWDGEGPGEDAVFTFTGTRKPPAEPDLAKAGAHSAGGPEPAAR
UniProt P9WPC9, 2-144 limits assumed: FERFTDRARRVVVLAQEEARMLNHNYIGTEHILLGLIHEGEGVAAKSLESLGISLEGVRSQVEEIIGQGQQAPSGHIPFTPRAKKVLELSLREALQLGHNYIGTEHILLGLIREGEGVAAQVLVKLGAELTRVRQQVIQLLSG

| SMILES | Kd (Mycobacterial ClpC1-NTD) [nM] | Kd (Mycobacterial ClpC1 FL) [nM] | MIC (M. tuberculosis; [1]) [nM] | increase in activity compared to rufomycin analogues 1 and 2 (M. tuberculosis; MIC ratio, in words) | MIC (M. tuberculosis; text summary of Table 1, unit not given) |
| --- | --- | --- | --- | --- | --- |
| C/C=C/C[C@@H]1NC(=O)[C@H](CC(C)C)N2C(=O)[C@H](CC(C)[C@H]2OC)N(C)C(=O)[C@H](C)NC(=O)[C@H](Cc2ccc(OC(C)=O)c([N+](=O)[O-])c2)NC(=O)[C@H](CC(C)C)N(C)C(=O)[C@H](Cc2cn(C(C)(C)[C@H]3CO3)c3ccccc23)NC1=O (some centres unmarked) | 62.1 | 97.7 | 5.1 (≈ 5.6 ng/mL) | – | – |
| C/C=C/C[C@@H]1NC(=O)[C@H](CC(C)C)N2C(=O)[C@H](CC(C)[C@H]2OC)N(C)C(=O)[C@H](C)NC(=O)[C@H](Cc2ccc(OC(C)=O)c([N+](=O)[O-])c2)NC(=O)[C@H](CC(C)C)N(C)C(=O)[C@H](Cc2cn(C(C)(C)[C@H](O)CCl)c3ccccc23)NC1=O (some centres unmarked) | 77.6 | 121 | 1.4 (≈ 1.59 ng/mL) | ten-fold increase in activity | 1.4 |
